According to publication PMC12406196, “Anticoronavirus Activity of Uridine Glycoconjugates Containing a 1,2,3-Triazole Moiety” (Journal of Medicinal Chemistry, 2025):
Values joined by “and” are separate entries in the source; they are usually repeats but may differ in a detail not shown here. Identical values can stand only once.

Key:
Type in all cases: cell-based
[1] = system: murine hepatitis virus strain A59 (MHV); assay: MHV titer in medium of infected LR7 cells, plaque assay; conditions: CC50/IC50 ratio
Method: LR7 or LLC-Mk2 cells were infected at a MOI of 0.01 with MHV and HCoV-NL63, respectively, and treated with selected compounds at a concentration ranging from 0 to 50 μM. Culture supernatants were collected 1 day (MHV) or 4 days (HCoV-NL63) after infection. Virus titer was determined by plaque assay.
(§1) The half-maximum inhibitory concentration value (IC50) indicating the concentration of compound needed to reduce virus titer by 50% in comparison to the control, was evaluated by GraphPad software (version 5.01, GraphPad Software, San Diego, CA).

[2] = system: human coronavirus strain NL63 (HCoV-NL63); assay: HCoV-NL63 titer in medium of infected LLC-Mk2 cells, foci-forming assay; conditions: CC50/IC50 ratio
Method: LR7 or LLC-Mk2 cells were infected at a MOI of 0.01 with MHV and HCoV-NL63, respectively, and treated with selected compounds at a concentration ranging from 0 to 50 μM. Culture supernatants were collected 1 day (MHV) or 4 days (HCoV-NL63) after infection. […]
as §1

SARS-CoV-2 = SARS-CoV-2 infectivity in supernatants of infected Vero cells, plaque assay
Method: Vero cells were seeded in appropriate plates and allowed to reach an approximately 90% confluence. For infection, 200 μL of viral suspension containing 10^5 pfu (SARS-CoV-2 strain SARS-CoV-2/human/Czech Republic/951/2020) was added to each well and incubated for 2 h at 37 °C to allow virus adsorption. After the incubation, the viral medium was removed, and the wells were washed gently with phosphate-buffered saline (PBS). Test compounds were prepared in serial dilutions to final concentrations of 50, 25, 12.5, 6.25, 3.125, and 0 μM in the medium (DMEM containing 2% FBS). The compounds were added in quadruplicate to the infected cells. The plates were then incubated for 48 h at 37 °C. Following the 48 h treatment period, the supernatants were removed, and plaque assays in Vero E6 cells were performed to assess viral titers. Cells were fixed and stained 4 days after infection to visualize plaques, as described previously.
as §1

| Structure (SMILES) | SI (MHV) [1] | SI (HCoV-NL63) [2] | SI (SARS-CoV-2) (SARS-CoV-2) |
| --- | --- | --- | --- |
| CC(=O)OC[C@H]1O[C@@H](SCc2cn(C[C@H]3O[C@@H](n4ccc(=O)[nH]c4=O)[C@H](O[Si](C)(C)C(C)(C)C)[C@@H]3O[Si](C)(C)C(C)(C)C)nn2)[C@H](OC(C)=O)[C@@H](OC(C)=O)[C@@H]1OC(C)=O [Compound 20, 2′,3′-di-O-tert-Butyldimethylsilyl-5′-deoxy-5′-[4-(2″,3″,4″,6″-tetra-O-acetyl-β-D-glucopyranosylthiomethyl)-1,2-3-triazol-1-yl]-uridine] | >8.8 | >18.2 | >6.2 |
| CC(=O)OC[C@H]1O[C@@H](SCn2cc(COC[C@H]3O[C@@H](n4ccc(=O)[nH]c4=O)[C@H](O[Si](C)(C)C(C)(C)C)[C@@H]3O[Si](C)(C)C(C)(C)C)nn2)[C@H](OC(C)=O)[C@@H](OC(C)=O)[C@@H]1OC(C)=O [Compound 24, 2′,3′-di-O-tert-Butyldimethylsilyl-5′-O-[(1-(2″,3″,4″,6″-tetra-O-acetyl-β-D-glucopyranosylthiomethyl)-1,2-3-triazol-4-yl)-methyl]-uridine] | >27.0 | 19.05 and 19.0 | >5.3 |
| CC(=O)OC[C@H]1O[C@@H](SCc2cn(C[C@H]3O[C@@H](n4ccc(=O)[nH]c4=O)[C@H](O[Si](C)(C)C(C)(C)C)[C@@H]3O[Si](C)(C)C(C)(C)C)nn2)[C@H](OC(C)=O)[C@@H](OC(C)=O)[C@H]1OC(C)=O [Compound 21, 2′,3′-di-O-tert-Butyldimethylsilyl-5′-deoxy-5′-[4-(2″,3″,4″,6″-tetra-O-acetyl-β-D-galactopyranosylthiomethyl)-1,2-3-triazol-1-yl]-uridine] | 14.5 | 8.2 | >5.3 |
| CC(=O)OC[C@H]1O[C@@H](OCc2cn(C[C@H]3O[C@@H](n4ccc(=O)[nH]c4=O)[C@H](O[Si](C)(C)C(C)(C)C)[C@@H]3O[Si](C)(C)C(C)(C)C)nn2)[C@H](OC(C)=O)[C@@H](OC(C)=O)[C@H]1OC(C)=O [Compound 15, 2′,3′-di-O-tert-Butyldimethylsilyl-5′-deoxy-5′-[4-(2″,3″,4″,6″-tetra-O-acetyl-β-D-galactopyranosyloxymethyl)-1,2-3-triazol-1-yl]-uridine] | 17.7 | 7.3 | >3.6 |
